Experimental data as given in paper PMC12040169 (PLOS Biology, 2025).

System: HeLa
Conditions: bulk resorufin, single well; 28.5 h, 10 µM

SMILES	% viability [%]
O=C(OC1CN2CCC1CC2)c1ccccc1 (centres unmarked)	0.9303
NCCSP(=O)(O)O	0.8485
